Measurements: paper PMC3750474

Target: HIV-1 M-group (NL4-3) N-terminal capsid domain (HIV-1 M-group (NL4-3))

Question: For “human cyclophilin A (from UniProt P62937 1-165) (enzyme)”, which rate of cis-trans isomerization of the capsid G89-P90 bond catalysed by CypA (NMR ZZ-exchange; 430 μM CA^N, 35 μM CypA, 298 K) is on record?
Answer: The rate of cis-trans isomerization of the capsid G89-P90 bond catalysed by CypA (NMR ZZ-exchange; 430 μM CA^N, 35 μM CypA, 298 K) was 4.3 s⁻¹.
